Anti-infective test results gathered from many reports (values: NIAID ChemDB through PubChem).

Shared fields: growth or infection tests; species: Herpes simplex virus 1; cell line: VERO; endpoint: EC50

Blank or dashed fields: not listed here. ECn is the concentration giving n% inhibition of infection, replication or growth. Neighbouring rows are from separate reports.

structure	strain	read by	value
COc1ccc(-c2cc(=O)c3c(O)cc(O)cc3o2)cc1	TK-		>20 µg/mL
CCOP(=O)(OCC)C(=O)OC		plaque count	>500 µM
CC(C)=CCc1c(O)cc(O)c2c1O[C@H](c1ccc(O)cc1O)CC2=O	15577	cytopathic effect	1.6 µg/mL
Oc1cc(O)c2c(c1)O[C@H](c1ccc(O)c(O)c1)[C@H](O)C2			>200 µM
Cc1cccc2c1OP(=O)(OC[C@H]1O[C@@H](n3cc(/C=C/Br)c(=O)[nH]c3=O)C[C@@H]1OC(=O)C(C)(C)C)OC2	KUPKA (TK+)	plaque count	5.45 µg/mL
CCOC(=O)P(=O)(O)OC[C@H]1O[C@@H](n2cc(CCCl)c(=O)[nH]c2=O)C[C@@H]1O	TK-	cytopathic effect	>70.3 µM
Nc1ncnc2c1ncn2CCOCP(=O)(O)O			8 µM
O=c1c2cnn(-c3ccccc3)c2nc2n(-c3ccccc3)cnn12		plaque count	33 µg/mL
CCCSc1nsc(-c2ccccc2)c1C(=O)O	F	plaque count	>500 µg/mL
NC(=O)c1c[se]c([C@@H]2O[C@H](CO)[C@@H](O)[C@H]2O)n1	KOS	cytopathic effect	30 µg/mL
O=Nc1c(O)n(-c2ccc(Br)cc2)c(=O)[nH]c1=O	Leningrad/248/88	cytopathic effect	>100 µg/mL
Nc1nc2c(ncn2[C@H]2C[C@@]23C[C@@H]3CO)c(=O)[nH]1		plaque count	>50 µM
COc1cc(O)c2c(=O)cc(-c3ccc(OC)c(-c4c(O)cc(O)c5c(=O)cc(-c6ccc(O)cc6)oc45)c3)oc2c1	HF	plaque count	0.76 µg/mL
O=c1[nH]c(=O)n([C@H]2C[C@H](O)[C@@H](COP3(=O)OCc4cc(-c5ccccc5)ccc4O3)O2)cc1/C=C/Br	KUPKA (TK+)	plaque count	0.27 µg/mL
Nc1nc2c(ncn2COCCO)c(=O)[nH]1	KOS	cytopathic effect	46 µg/mL
O=c1c2cnn(-c3ccccc3)c2nc(Nc2ccccc2)n1/N=C/c1ccc(Cl)cc1		plaque count	41 µg/mL
CCOC(=O)CP(=O)(OC)OC[C@H]1O[C@@H](n2cc(I)c(=O)[nH]c2=O)C[C@@H]1O	BRAND	cytopathic effect	>1.9 µM
O=C1c2cc3ccoc3cc2O[C@@H]2COc3cc4c(cc3[C@]12O)OCO4	KOS	plaque count	>50 µg/mL
CC1(C)C=Cc2c(cc(O)c3c2OC2c4ccc(O)cc4OC(C(C)(C)OO)CC2C3=O)O1	15577	cytopathic effect	>100 µg/mL
C[C@@H](N)C(=O)O[C@H]1C[C@H](n2cc(/C=C/Br)c(=O)[nH]c2=O)O[C@@H]1COP1(=O)OCc2ccccc2O1	KUPKA (TK+)	plaque count	0.24 µg/mL
COc1cc2c(cc1-c1coc3cc4occc4cc3c1=O)OCO2	KOS	plaque count	25.5 µg/mL
CCc1cn([C@H]2C[C@H](O)[C@@H](COP(=O)(O)C(N)=O)S2)c(=O)[nH]c1=O	L2 acyclovir-susceptible	cytopathic effect	1.3 µM
C[C@@]1(CO)[C@H](O)CC[C@@]2(C)[C@H]1CC[C@H]1C[C@@H]3C[C@@]12CC[C@]3(O)CO		plaque count	100 µg/mL
COc1cc2c(cc1CO)CC[C@H]1C(C)(CO)[C@H](O)CC[C@]21C		plaque count	100 µM
CSc1nsc(-c2ccccc2)c1C#N	F	plaque count	>20 µg/mL
Cc1cccc2c1OP(=O)(OC[C@H]1O[C@@H](n3cc(/C=C/Br)c(=O)[nH]c3=O)C[C@@H]1OC(=O)[C@@H](N)Cc1ccccc1)OC2	KUPKA (TK+)	plaque count	0.46 µg/mL
COc1cc(O)c(CC=C(C)C)c(O)c1C(=O)/C=C/c1ccc(O)cc1		cytopathic effect	2.7 µg/mL
CC(C)=CC1Oc2cc(O)ccc2-c2oc3c4c(cc(O)c3c(=O)c21)OC(C)(C)C=C4	15577	cytopathic effect	>100 µg/mL
CC(=O)O[C@H]1C[C@H](n2cc(/C=C/Br)c(=O)[nH]c2=O)O[C@@H]1COP1(=O)OCc2cccc(C)c2O1	KUPKA (TK+)	plaque count	0.8 µg/mL
COC(=O)[C@H](C)NP(=O)(OC[C@@H]1C[C@]12C[C@@H]2n1cnc2c(N)ncnc21)Oc1ccccc1		plaque count	20 µM
O=C(Oc1ccccc1)P(=O)(O)O		plaque count	60 µM
Nc1ncnc2c1ncn2CCOCP(=O)(O)O	KOS	plaque count	95 µM
COc1ccc(OC(=O)P(=O)(O)O)cc1	C42	plaque count	500 µM
O=c1c2cnn(-c3ccccc3)c2nc2n(-c3ccccc3)c(=S)[nH]n12		plaque count	66 µg/mL
CC(C)C(=O)O[C@H]1C[C@H](n2cc(/C=C/Br)c(=O)[nH]c2=O)O[C@@H]1COP1(=O)OCc2ccccc2O1	KUPKA (TK+)	plaque count	0.61 µg/mL
Nc1nc2c(ncn2[C@H]2C[C@@]23C[C@H]3CO)c(=O)[nH]1		plaque count	>100 µM
COc1c2c(cc3ccoc13)C(=O)[C@@]1(O)c3cc4c(cc3OC[C@H]1O2)OCO4	KOS	plaque count	>50 µg/mL
Cc1cccc2c1OP(=O)(OC[C@H]1O[C@@H](n3cc(/C=C/Br)c(=O)[nH]c3=O)C[C@@H]1OC(=O)CN)OC2	KUPKA (TK+)	plaque count	0.42 µg/mL
Nc1nc2c(ncn2[C@H]2C[C@]23C[C@@H]3CO)c(=O)[nH]1		plaque count	>50 µM
Nc1nc2c(ncn2COCCOP(=O)(O)C(=O)O)c(=O)[nH]1	AVD	cytopathic effect	143 µM
O=Nc1c(O)n(-c2ccc(F)cc2)c(=O)[nH]c1=O	Leningrad/248/88	cytopathic effect	<100 µg/mL
Nc1nc2c(ncn2COCCO)c(=O)[nH]1	1F	plaque count	2.1 µg/mL
O=C(O)CP(=O)(O)OC[C@H]1O[C@@H](n2cc(CCCl)c(=O)[nH]c2=O)C[C@@H]1O	BRAND	cytopathic effect	>2.3 µM
O=C(O)P(=O)(O)Oc1ccccc1		plaque count	15 µM
CC(=O)O[C@H]1CC[C@@]2(C)C(CC[C@]3(C)C2CC=C2C4[C@@H](C)[C@H](C)CC[C@]4(C)CC[C@]23C)C1(C)C	15577	cytopathic effect	>100 µg/mL
COP(=O)(CC(=O)OC[C@H]1O[C@@H](n2cc(CCCl)c(=O)[nH]c2=O)C[C@@H]1O)OC	BRAND	cytopathic effect	>6.8 µM
COC(=O)[C@H](C)NP(=O)(OC[C@@H]1C[C@]12C[C@@H]2n1cnc2c(N)ncnc21)Oc1ccccc1		plaque count	20 µM
COC(=O)c1c(SC)nsc1-c1ccccc1	F	plaque count	>100 µg/mL
CC(C)(C)n1c(O)c(N=O)c(=O)[nH]c1=O	Leningrad/248/88	cytopathic effect	100 µg/mL
COP(=O)(O)C(=O)O		plaque count	>500 µM
N#Cc1c(SCCCBr)nsc1-c1ccccc1	F	plaque count	>25 µg/mL
O=c1c(O)c(-c2ccc(O)c(O)c2)oc2cc(O)cc(O)c12			<60 µg/mL
CCCSc1nsc(-c2ccccc2)c1C(=O)OC	F	plaque count	>50 µg/mL
O=c1c2cnn(-c3ccccc3)c2nc(Nc2ccccc2)n1/N=C/c1ccc(Br)cc1		plaque count	30 µg/mL
CSc1nsc(-c2ccccc2)c1C(=O)O	F	plaque count	>500 µg/mL
O=C(OCc1ccccc1)P(=O)(O)OC[C@H]1O[C@@H](n2cc(CCCl)c(=O)[nH]c2=O)C[C@@H]1O	TK-	cytopathic effect	>20.5 µM